Data published in article PMC4936752, “Human Cytomegalovirus Immediate-Early 1 Protein Rewires Upstream STAT3 to Downstream STAT1 Signaling Switching an IL6-Type to an IFNγ-Like Response” (PLoS Pathogens, 2016).

Target: T1, HA-tagged wild-type hCMV (Towne) immediate-early 1 protein (IE1) (human cytomegalovirus (hCMV), strain …, UniProt P03169 1-491)
T1 sequence: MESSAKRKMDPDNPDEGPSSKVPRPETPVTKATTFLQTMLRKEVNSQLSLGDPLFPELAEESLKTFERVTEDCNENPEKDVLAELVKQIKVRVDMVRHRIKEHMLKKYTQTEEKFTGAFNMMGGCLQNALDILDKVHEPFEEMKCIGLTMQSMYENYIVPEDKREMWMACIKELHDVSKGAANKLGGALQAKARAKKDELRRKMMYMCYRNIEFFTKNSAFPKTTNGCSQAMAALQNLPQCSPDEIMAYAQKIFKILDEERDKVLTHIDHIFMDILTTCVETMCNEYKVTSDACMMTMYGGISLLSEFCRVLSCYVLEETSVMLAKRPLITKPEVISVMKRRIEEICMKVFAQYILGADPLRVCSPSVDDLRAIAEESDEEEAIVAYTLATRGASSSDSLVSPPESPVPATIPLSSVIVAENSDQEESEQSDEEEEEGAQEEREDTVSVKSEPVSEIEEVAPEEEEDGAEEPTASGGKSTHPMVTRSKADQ
Assay: cell-based or functional assay

B1: STAT3α, endogenous in MRC-5-derived TetR cells (natural protein)
chain: not shown
expression of pSTAT1-responsive type II ISGs (CXCL10 and CXCL11) after IL6 plus IL6R for 24 h (RT-qPCR), cells with wild-type IE1 compared to cells with IE1dl410-420 or no viral protein: ~1000 fold
